From patent US9452154B2, “Methods for treating HCV” (Gilead Sciences, Inc., priority 2010, dated 2016)
Several values for one entry are separate records, joined by “and”; a condition that tells them apart may be missing. Equal values may be shown once.

Columns and labels:
[1] = tested on: HCV genotype 1b replicon cells (Huh-luc); experiment: Biological Example 2: antiviral combination studies with Compound 3 (MacSynergy II); conditions: in combination with Compound 3
[2] = tested on: HCV genotype 1b replicon cells (Huh-luc); experiment: Biological Example 1: antiviral combination study (MacSynergy II); conditions: in combination with Compound 2

Molecule | Antagonism Volume [1] | Interaction [1] | Synergy Volume [1] | Antagonism Volume [2] | Interaction [2]
Fc1ccccc1-c1nc2ccn(Cc3ccc(-c4ccc(C(F)(F)F)cc4C(F)(F)F)nn3)cc-2n1 [Compound 1, 5-((6-(2,4-bis(trifluoromethyl)phenyl)pyridazin-3-yl)methyl)-2-(2-fluorophenyl)-5H-imidazo[4,5-c]pyridine] | 4.22 ± 5.0 nM^2 | Additive | 14.5 nM^2 and 14.5 ± 0.7 nM^2 | 0.07 ± 0.07 nM^2 | Additive (Additive if volumes are >−50 nM^2 and ≦50 nM^2)
NC(=O)c1ncn([C@@H]2O[C@H](CO)[C@@H](O)[C@H]2O)n1 [Ribavirin, 1-β-D-ribofuranosyl-1H-1,2,4-Triazole-3-carboxamide, reference compound] | 1.6 ± 2.3 nM^2 | Moderate synergy (Moderate synergy if volumes are >50 and ≦100 nM^2) | 54 ± 14.1 nM^2 |  | 
IFN-α [reference compound] | 0.15 ± 0.2 nM^2 | Minor synergy (Minor synergy if volumes are >25 and <50 nM^2) | 32 nM^2 and 32 ± 4.2 nM^2 |  | 
